Results taken from publication PMC7024169, “Synthesis and Antimalarial Activity of 1,4-Disubstituted Piperidine Derivatives” (Molecules, 2020).
Some compounds may have been tested in ways that are not shown here.

What was measured:
[1] = tested on: Plasmodium falciparum 3D7 Strain; test: Antiplasmodial SYBR Green I assay, chloroquine-sensitive 3D7 strain; type: cell-based
[2] = tested on: Plasmodium falciparum W2 Strain; test: Antiplasmodial SYBR Green I assay, chloroquine-resistant W2 strain; type: cell-based

SMILES | activity against 3D7 strain, in words [1] | activity against W2 strain, in words [2]
O=C(COc1ccccc1Cl)N(c1cccc(F)c1)C1CCNCC1 | inactive | inactive
O=C(COc1ccccc1Cl)N(c1ccccc1)C1CCNCC1 | inactive | inactive
